How the values were obtained:
N[C@H](CS)C(=O)O = experiment: purified protein; settings: 0.1-30 mM D-cysteine, 50 mM phosphate pH 7.6, 30°C, 5 min, 30.0 °C
NC1(C(=O)O)CC1 = experiment: purified protein; settings: 0.1-100 mM ACC, 100 mM Na-phosphate pH 7.6

Acd1 (Dcs1) (Fusarium graminearum PH-1)
Km (N[C@H](CS)C(=O)O): 18 mM

Acd2 (Fusarium graminearum PH-1)
Km (NC1(C(=O)O)CC1): 3.3 ± 0.7 mM
